These results are taken from PMC5244253, “Phloretin Attenuates Listeria monocytogenes Virulence Both In vitro and In vivo by Simultaneously Targeting Listeriolysin O and Sortase A” (Frontiers in Cellular and Infection Microbiology, 2017).

The chains behind the UniProt entries cited, without tags or fusion partners. Residues count along the entry.
UniProt Q8Y8H5, 71-222 T162A: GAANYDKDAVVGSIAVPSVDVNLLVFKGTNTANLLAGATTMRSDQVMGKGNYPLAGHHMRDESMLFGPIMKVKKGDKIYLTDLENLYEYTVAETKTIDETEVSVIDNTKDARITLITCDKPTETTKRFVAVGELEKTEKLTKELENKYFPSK
UniProt Q8Y8H5, 71-222 I175A: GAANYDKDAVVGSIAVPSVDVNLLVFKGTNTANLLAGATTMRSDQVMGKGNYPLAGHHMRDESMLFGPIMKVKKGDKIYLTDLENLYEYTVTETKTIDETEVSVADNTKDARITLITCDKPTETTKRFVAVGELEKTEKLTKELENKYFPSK
UniProt Q8Y8H5, 71-222 V201A: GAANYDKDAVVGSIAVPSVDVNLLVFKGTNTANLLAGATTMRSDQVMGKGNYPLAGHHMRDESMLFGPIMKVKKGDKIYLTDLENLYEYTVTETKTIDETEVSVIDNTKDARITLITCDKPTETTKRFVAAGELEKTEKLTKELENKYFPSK

For one assay, the target named is SrtA T90A (Listeria monocytogenes serovar 1/2a, UniProt Q8Y8H5, T162A). As to conditions: phloretin 14.59 or 58.34 μM, compared with WT-SrtA.
A further assay has as its target SrtA I103A (Listeria monocytogenes serovar 1/2a, UniProt Q8Y8H5, I175A). Conditions: phloretin 14.59 or 58.34 μM, compared with WT-SrtA.
The target in another assay is V129A (Listeria monocytogenes serovar 1/2a, UniProt Q8Y8H5, V201A). Conditions: phloretin 14.59 or 58.34 μM, compared with WT-SrtA.
Assay [1] deals with L. monocytogenes escape from internalization vacuoles in Caco-2 cells. In words: Bacterial escape from internalization vacuoles into cytoplasm (confocal microscopy). Conditions: EGDe strain, phloretin 58.34 μM, with or without pre-incubation; 3 h or 5 h post-infection; F-actin colocalization.

As to `O=C(CCc1ccc(O)cc1)c1c(O)cc(O)cc1O` [phloretin], the “inhibitory effect against SrtA mutant activity” value on SrtA T90A, on SrtA I103A and against V129A was “much lower than that against WT-SrtA” each time. In addition, the “bacterial escape from vacuoles into cytoplasm” value in assay [1] is “significantly decreased”.
